Results of unrelated studies side by side (data: NIAID ChemDB).

Shared fields: tests on isolated targets; species: HIV-1; protein: Reverse transcriptase; measure: IC50

Neighbouring rows are from separate reports.

CCC1(c2ccc(I)cc2)Oc2ccccc2-n2cccc2C1=O ; method: nucleotide incorporation / radiometric ; mutations: RT-K103N ; result: >100 µM
CCN1c2ncc(CSc3ccncc3)cc2C(=O)N(C)c2ccc(Cl)nc21 ; method: nucleotide incorporation / radiometric ; strain or isolate: WT ; result: <1 µM
CCN1c2ncc(CCOc3ccc(C(=O)O)c4c3CCCC4)cc2C(=O)N(C)c2cccnc21 ; method: nucleotide incorporation / radiometric ; mutations: RT-Y188L ; result: >1 µM
COC(=O)c1ccc(C(=O)N2CCC(NC(=O)c3cc(O)c(O)c(O)c3)CC2)cc1 ; method: ELISA / nucleotide incorporation ; strain or isolate: BH10 ; result: >289.6 µM
CCN1c2ncc(CCOc3ccc(CC(N)=O)c4ccccc34)cc2C(=O)N(C)c2cccnc21 ; method: nucleotide incorporation / radiometric ; mutations: RT-Y188L ; result: >1 µM
O=C(CSc1nnnn1-c1ccccc1Br)Nc1ccccc1Cl ; method: nucleotide incorporation / radiometric ; result: <2 µM
CCN1c2ncc(CCOc3cccc4c3CCCN4CC(=O)O)cc2C(=O)N(C)c2cccnc21 ; method: nucleotide incorporation / radiometric ; mutations: RT-Y188L ; result: >1 µM
C=C(C)CCOCc1ccc(C2(CC)Oc3ccccc3-n3cccc3C2=O)cc1 ; method: nucleotide incorporation / radiometric ; mutations: RT-V106A ; result: 3.6 µM
Cc1cc(C)c(-n2nnnc2SCC(=O)Nc2ccc(C)cc2Cl)c(C)c1 ; method: nucleotide incorporation / radiometric ; result: <2 µM
CCN1c2ncc(OCc3ccccc3)cc2C(=O)N(C)c2ccc(Cl)nc21 ; method: nucleotide incorporation / radiometric ; strain or isolate: WT ; result: >1 µM
CC(=O)c1sccc1NC(=O)CSc1nnnn1-c1c(C)cc(C)cc1C ; method: nucleotide incorporation / radiometric ; result: <2 µM
C=C(C)[C@@H]1CC[C@]2(C)CC[C@]3(C)[C@H](CC[C@@H]4[C@@]5(C)CC[C@H](OC(C)=O)C(C)(C)[C@@H]5CC[C@]43C)[C@@H]12 ; method: nucleotide incorporation ; result: 6.4 µM
CN(C)C(=O)N1CCC(NC(=O)c2cc(O)c(O)c(O)c2)CC1 ; method: ELISA / nucleotide incorporation ; strain or isolate: BH10 ; result: >371.1 µM
COc1ccc2c(c1)N(C(=O)OC(C)C)[C@@H](CSC)C(=S)N2 ; method: scintillation proximity / radiometric ; mutations: RT-M230L ; result: 1 µM
Cc1cc(C)c(-n2nnnc2SCC(=O)Nc2ccc(Cl)nc2Cl)c(C)c1 ; method: nucleotide incorporation / radiometric ; result: <2 µM
C[C@H]1[C@H](C)CC[C@]2(C)CC[C@]3(C)C(=CC[C@@H]4[C@@]5(C)CC[C@H](O)C(C)(C)[C@@H]5CC[C@]43C)[C@H]12 ; method: nucleotide incorporation ; result: 3.3 µM
CNc1ccc(Cl)cc1S(=O)(=O)c1ccccc1[N+](=O)[O-] ; mutations: RT-K103N ; result: >100 µM
CCC1(c2ccc(COc3cccc(Cl)c3)cc2)Oc2ccccc2-n2cccc2C1=O ; method: nucleotide incorporation / radiometric ; strain or isolate: WT ; result: 0.1 µM
CCN1c2ncc(COc3ccnc(C(F)(F)F)c3)cc2C(=O)N(C)c2ccc(Cl)nc21 ; method: nucleotide incorporation / radiometric ; strain or isolate: WT ; result: <1 µM
Cc1cc(C)c(-n2nnnc2SCC(=O)Nc2ccc(F)cc2Cl)c(C)c1 ; method: nucleotide incorporation / radiometric ; result: <2 µM
O=C(NC1CCN(S(=O)(=O)c2ccc(F)cc2)CC1)c1cc(O)c(O)c(O)c1 ; method: ELISA / nucleotide incorporation ; strain or isolate: BH10 ; result: >55.2 µM
C=C(C)[C@@H]1CC[C@]2(C)CCC3(C)[C@H](CC[C@@H]4[C@@]5(C)CC[C@H](O)C(C)(C)[C@@H]5CC[C@]43C)[C@@H]12 ; method: nucleotide incorporation ; result: 3.8 µM
CCN1c2ncc(CCOc3ccc(S(N)(=O)=O)c4ccccc34)cc2C(=O)N(C)c2cccnc21 ; method: nucleotide incorporation / radiometric ; strain or isolate: WT ; result: <0.1 µM
CC1(C)[C@H](O)CC[C@]2(C)C3=CC[C@@]4(C)[C@@H]5C[C@](C)(COC(=O)c6ccccc6)CC[C@]5(C)CC[C@]4(C)C3=CC[C@@H]12 ; method: nucleotide incorporation ; result: 2.2 µM
Cc1cccc(C)c1-n1nnnc1SCC(=O)Nc1ccccc1Cl ; method: nucleotide incorporation / radiometric ; result: <2 µM
CC1(C)CC[C@]2(C)[C@@H](O)C[C@]3(C)C(=CCC4[C@@]5(C)CC[C@H](O)C(C)(C)[C@@H]5CC[C@]43C)[C@@H]2C1 ; method: nucleotide incorporation ; result: 23 µM
Cc1occc1C(=S)Nc1ccc(Cl)c(/C=N/OC(C)(C)C)c1 ; mutations: RT-V106A ; result: 12.7 µM
CCC1(c2ccc(CNc3ccccc3)cc2)Oc2ccccc2-n2cccc2C1=O ; method: nucleotide incorporation / radiometric ; mutations: RT-Y188L ; result: >10 µM
Cc1cn([C@H]2C=C[C@@H](COP(=O)(O)OP(=O)(O)OP(=O)(O)O)O2)c(=O)[nH]c1=O ; method: nucleotide incorporation / radiometric ; mutations: RT-I132M ; result: 0.12 µM
CC1(C)CC[C@]2(CO)CC[C@]3(C)C(=CCC4[C@@]5(C)CC[C@H](O)C(C)(C)C5CC[C@]43C)C2C1 ; method: nucleotide incorporation ; result: 5 µM
Cc1cc(C)c(-n2nnnc2SCC(=O)Nc2cc([N+](=O)[O-])ccc2Cl)c(C)c1 ; method: nucleotide incorporation / radiometric ; result: <2 µM
Nc1ccc(S(=O)(=O)N2CCN(C(=O)c3cc(O)c(O)c(O)c3)CC2)cc1 ; method: ELISA / nucleotide incorporation ; strain or isolate: BH10 ; result: >50 µM
CCN1c2ncc(CCOc3ccc4cc(C(=O)O)ccc4c3)cc2C(=O)N(C)c2cccnc21 ; method: nucleotide incorporation / radiometric ; strain or isolate: WT ; result: <0.1 µM
CCC1(c2ccc(CCc3ccccc3)cc2)Oc2ccccc2-n2cccc2C1=O ; method: nucleotide incorporation / radiometric ; strain or isolate: WT ; result: 0.17 µM
O=C(NC1CCNCC1)c1cc(O)c(O)c(O)c1 ; method: ELISA / nucleotide incorporation ; strain or isolate: BH10 ; result: >475.7 µM
CCN1c2ncc(COc3cc[n+]([O-])cc3)cc2C(=O)N(C)c2ccc(Cl)nc21 ; method: nucleotide incorporation / radiometric ; mutations: RT-Y181C ; result: >1 µM
Cc1cc(C)c(-n2nnnc2SCC(=O)Nc2ccc(C)c([N+](=O)[O-])c2)c(C)c1 ; method: nucleotide incorporation / radiometric ; result: <2 µM
CCN1c2ncc(CCOc3ccc(CCC(=O)NN)c4ccccc34)cc2C(=O)N(C)c2cccnc21 ; method: nucleotide incorporation / radiometric ; mutations: RT-V106A ; result: >1 µM
CCC1(c2ccc(COc3cccnc3)cc2)Oc2ccccc2-n2cccc2C1=O ; method: nucleotide incorporation / radiometric ; mutations: RT-L100I ; result: 0.3 µM
CCN1c2ncc(CCO)cc2C(=O)N(C)c2ccc(Cl)nc21 ; method: nucleotide incorporation / radiometric ; mutations: RT-Y181C ; result: <1 µM
c1ccc(C2SCc3nc4ccccc4n32)cc1 ; mutations: RT-Y181I ; result: >50 µM
CCN1c2ncc(C=O)cc2C(=O)N(C)c2ccc(F)nc21 ; method: nucleotide incorporation / radiometric ; strain or isolate: WT ; result: ~1 µM
C/C=C/CSc1cc(NC(=S)c2ccsc2C)ccc1Cl ; result: 7.5 µM
CCOc1cccc(C2(CC)Oc3ccccc3-n3cccc3C2=O)c1 ; method: nucleotide incorporation / radiometric ; mutations: RT-K103N ; result: 3.5 µM

Repeating the final 4 entries:

{"smiles": "c1ccc(C2SCc3nc4ccccc4n32)cc1", "mutations": "RT-Y181I", "result": ">50 µM"}
{"smiles": "CCN1c2ncc(C=O)cc2C(=O)N(C)c2ccc(F)nc21", "method": "nucleotide incorporation / radiometric", "strain or isolate": "WT", "result": "~1 µM"}
{"smiles": "C/C=C/CSc1cc(NC(=S)c2ccsc2C)ccc1Cl", "result": "7.5 µM"}
{"smiles": "CCOc1cccc(C2(CC)Oc3ccccc3-n3cccc3C2=O)c1", "method": "nucleotide incorporation / radiometric", "mutations": "RT-K103N", "result": "3.5 µM"}

ICn: concentration for n% inhibition.